Test results taken from article PMC4089486, “Structural and biochemical analyses of alanine racemase from the multidrug-resistant Clostridium difficile strain 630” (Acta Crystallographica Section D: Biological Crystallography, 2014).

Experiments:
C[C@H](N)C(=O)O = experiment: purified protein; conditions: L-Ala to D-Ala, 50 mM sodium borate pH 8.5
C[C@@H](N)C(=O)O = experiment: purified protein; conditions: D-Ala to L-Ala, 50 mM sodium borate pH 8.5

“CdAlr (C. difficile alanine racemase; CdAlrWT) (Clostridioides difficile 630; K271T)” gave a Km (C[C@H](N)C(=O)O) of 13.8 mM, a kcat (C[C@H](N)C(=O)O) of 3280 s⁻¹ and a Km (C[C@@H](N)C(=O)O) of 5.4 mM. The Vmax (C[C@@H](N)C(=O)O) was 1800 µmol/min/mg and the kcat (C[C@@H](N)C(=O)O) was 1300 s⁻¹.
